Compound potency records, mixed from different reports. Data source: NIAID ChemDB in PubChem.

Shared fields: whole-cell or culture tests; agent: Mycobacterium tuberculosis

A number after MIC or MFC names an inhibition level or a share of isolates.

structure	strain or isolate	changes	cell line	read by	conditions	read-out	dose	result
O=C1NC2NC(=O)NC2N1	H37Rv			BACTEC		MIC bound		>12.5 µg/mL
Cc1ccc2c(c1)N(CCCC1CCCCC1)C(=O)c1cc(Cl)nnc1O2	H37Rv			BACTEC		inhibition	12.5 µg/mL	8%
CC(C)N=c1cc2n(-c3ccc(Cl)cc3)c3ccccc3nc-2cc1Nc1ccc(Cl)cc1	29				multidrug-resistant	MIC		0.25 µg/mL
CCCCCCCCN1C(=O)c2cc(Cl)nnc2Oc2ccc(Cl)cc21	H37Rv			BACTEC		inhibition	12.5 µg/mL	49%
N#Cc1c(-c2ccccc2)ssc1=S	H37Rv			BACTEC		MIC bound		>12.5 µg/mL
COc1ccc(CN=C2NC(=O)/C(=C/c3c(Cl)cccc3Cl)N2)cc1	H37Rv					MIC		>12.5 µg/mL
CC1(C)OC(=O)ON(Cc2ccccc2)C1=O	H37Rv			BACTEC		inhibition	12.5 µg/mL	-9%
CCCCCCn1c(C)c(CN2CCOCC2)c(CN2CCOCC2)c1-c1ccc(Cl)cc1	103471					MIC		8 µg/mL
C=CCN(CC=C)C(=O)COc1cc2c(O)c3c(O)c(C)c4c(c13)C(=O)[C@@](C)(O/C=C/[C@H](OC)[C@@H](C)[C@@H](OC(C)=O)[C@H](C)[C@H](O)[C@H](C)[C@@H](O)[C@@H](C)/C=C/C=C(/C)C(=O)N2)O4	H37Rv					MIC		0.37 µg/mL
N[C@@H]1CN(c2c(F)cc3c(=O)c(C(=O)O)cn([C@@H]4C[C@@H]4F)c3c2Cl)CC12CC2	23 strains (rifampin- isoniazid-susceptible)					MIC90		0.1 µg/mL
O=C1NC(Nc2ccc(Cl)cc2)=N/C1=C\c1ccc(Cl)cc1Cl	H37Rv					inhibition	12.5 µg/mL	100%
COc1ccc(CCc2cc(OC)c3ccccc3n2)cc1OC	MT1					MIC		39 µg/mL
Cc1ccc(C(=S)CCC(=O)NC[C@H]2CN(c3ccc(N4CCOCC4)c(F)c3)C(=O)O2)cc1	10 clinical isolates resistant					MIC		>16 µg/mL
COc1ccc(Sc2ncccn2)cc1OC	H37Rv					inhibition	6.25 µg/mL	0%
O=C(O)c1cn(C2CC2)c2cc(N3CCN(C/C(=N/O)c4ccc(F)cc4)CC3)c(F)cc2c1=O	H37Rv		VERO			MIC		3.13 µg/mL
Cc1c(N2C[C@@H](N)C3(CC3)C2)c(F)c(N)c2c(=O)c(C(=O)O)cn(C3CC3)c12	23 strains (rifampin- isoniazid-susceptible)					MIC90		0.78 µg/mL
O=C1NC(Nc2ccccc2)=N/C1=C\c1ccc(Cl)cc1Cl	H37Rv					inhibition	12.5 µg/mL	47%
CO[C@H]1/C=C/O[C@@]2(C)Oc3c(C)c(O)c4c(O)c(c(/C=N/N5CCN(C6CCCC6)CC5)c(O)c4c3C2=O)NC(=O)/C(C)=C\C=C\[C@H](C)[C@H](O)[C@@H](C)[C@@H](O)[C@@H](C)[C@H](OC(C)=O)[C@@H]1C	H37Rv (capreomycin-resistant)					MIC		1.25 µg/mL
CC(C)/C(=N\NC(N)=O)C(c1ccccc1)c1ccccc1	H37Rv			BACTEC		MIC bound		>12.5 µg/mL
C[C@H]1COc2c(N3CCN(C)CC3)c(F)cc3c(=O)c(C(=O)O)cn1c23	27 strains (levofloxacin-susceptible)					MIC50		0.39 µg/mL
COc1cccc(Sc2ncccn2)c1	H37Ra					MIC		>12.8 µg/mL
O=c1oc2ccccc2cc1-c1cs/c(=N\N=C\c2cc(Br)ccc2O)n1C1CCCCC1	H37Rv					MIC		>12.5 µg/mL
CCCCCCn1c(C)cc(CN2CCN(C)CC2)c1C	H37Rv					MIC		<12.5 µg/mL
c1ccc(CSc2ccncc2)cc1	H37Ra					MIC		>12.8 µg/mL
CCOC(=O)Nc1cc(NCC(O)CN(C)c2ccc(Cl)cc2)c([N+](=O)[O-])c(N)n1	H37Rv					EC50		>12.5 µg/mL
Cc1[nH]c2ccc(N(C)C)cc2c(=O)c1Cc1c(C)[nH]c2ccc(N(C)C)cc2c1=O	H37Rv			BACTEC		inhibition	12.5 µg/mL	3%
O=C(N/N=C/c1ccncc1)c1ccc(F)cc1	H37Rv					MIC		>6.25 µg/mL
N#Cc1ccc(N2CCCC2)c(C#N)c1Cl	H37Rv			BACTEC		MIC bound		>12.5 µg/mL
CCOC(=O)Nc1cc(NCCCCc2ccccc2)c2[nH]cnc2n1	H37Rv					EC50		<12.5 µg/mL
CO[C@H]1/C=C/O[C@@]2(C)Oc3c(C)c(O)c4c(O)c(cc(OCC(=O)N5CCCCC5C)c4c3C2=O)NC(=O)/C(C)=C\C=C\[C@H](C)[C@H](O)[C@@H](C)[C@@H](O)[C@@H](C)[C@H](OC(C)=O)[C@@H]1C	H37Rv					MIC		0.18 µg/mL
CCOC(=O)Nc1cc(NC(c2ccccc2)c2ccccc2)c([N+](=O)[O-])c(N)n1	H37Rv					EC50		>12.5 µg/mL
[N-]=[N+]=NCc1cccc(C(=O)CC(=O)C(=O)O)c1	H37Rv			resazurin		MIC bound		>6.25 µg/mL
NC(=O)c1cnccn1	H37Rv					MIC		25 µg/mL
CN1CCc2cc3c(c4c2C1C(O)c1ccccc1-4)OCO3.Cl	H37Rv			BACTEC		MIC		≥12.5 µg/mL
COc1ccc(/C(CN2CCN(c3cc4c(cc3F)c(=O)c(C(=O)O)cn4C3CC3)CC2)=N\O)cc1	H37Rv					EC50		<6.25 µg/mL
CSc1nc(C#N)c(/N=C/N(C)C)n1C	H37Rv			BACTEC		MIC bound		>12.5 µg/mL
NC(=O)c1cnccn1	Isolate 11041 monodrug-resistant					MIC		>300 µg/mL
O=C1NC(Nc2ccccc2)=N/C1=C\c1ccccc1Cl	H37Rv					MIC		>12.5 µg/mL
CCOC(OCC)c1ccc(-n2c(N)c(C#N)cnc2=S)c2c1OC2=NC=C(C#N)C#N	H37Rv			BACTEC		inhibition	12.5 µg/mL	71%
COc1ccccc1Sc1ncccn1	H37Rv					MIC90		>6.25 µg/mL
NC(=O)c1cnccn1	Isolate 97-718					MIC		900 µg/mL
CC(C)(C)c1ccc(C(=O)CCC(=O)NC[C@H]2CN(c3ccc(-n4cncn4)c(F)c3)C(=O)O2)cc1	ATCC 27294					MIC		2 µg/mL
CO[C@H]1/C=C/O[C@@]2(C)Oc3c(C)c(O)c4c(O)c(cc(OCC(=O)N(C)C5CCCCC5)c4c3C2=O)NC(=O)/C(C)=C\C=C\[C@H](C)[C@H](O)[C@@H](C)[C@@H](O)[C@@H](C)[C@H](OC(C)=O)[C@@H]1C	H37Rv					MIC		0.09 µg/mL
CC(=O)Nc1ccc(/C=N/NC(N)=S)cc1	ATCC 27294					MBC		30 µg/mL
CCCCCCCN1C(=O)c2cc(Cl)nnc2Oc2ccc3ccccc3c21	H37Rv			BACTEC		inhibition	12.5 µg/mL	32%
COc1cc2oc3ccccc3c(=O)c2cc1CSc1ccccc1N	H37Rv			BACTEC		inhibition	12.5 µg/mL	16%
CCCCn1c(-c2cc3cc(Br)ccc3oc2=O)cs/c1=N\N=C\c1cc(Br)ccc1O	H37Rv					MIC		>12.5 µg/mL
O=C(CCn1[nH]c(=O)c(Cl)c(Cl)c1=O)NNC(=O)C[n+]1ccccc1.[Cl-]	H37Rv			BACTEC		MIC		≥12.5 µg/mL
CC[C@@H](CO)NCCN[C@@H](CC)CO	MDR14			broth dilution / resazurin		MIC		32 µg/mL
CC(=O)NC[C@H]1CN(c2ccc(N3CCOCC3)c(F)c2)C(=O)O1	Clinical isolate BRF 26	INH resistant		resazurin		MIC		0.25 µg/mL
CCCCn1c(-c2cc3cc(Br)ccc3oc2=O)cs/c1=N\N=C\c1ccc(Cl)cc1	H37Rv					MIC		>12.5 µg/mL
COc1ccc(C(=O)N2N=C(C)C(C)(C)C2(C)O)cc1	H37Rv			BACTEC		inhibition	12.5 µg/mL	0%
COc1ccc(CCC2CCc3ccccc3N2C)cc1OC	MT5					MIC		161 µg/mL
Cc1ccc(C(=O)CCC(=O)NC[C@H]2CN(c3ccc(-n4cncn4)c(F)c3)C(=O)O2)c(C)c1	ATCC 27294					MIC		1 µg/mL
CCOC(=O)Nc1cc(NCc2ccc(S(=O)(=O)N(CC)CC)cc2)c(N)c(N)n1	H37Rv					EC50		>12.5 µg/mL
Cc1c(CN2CCN(C)CC2)cc(-c2ccc(Cl)cc2)n1Cc1ccccc1	H37Rv					MIC		<12.5 µg/mL
Cc1c(CSc2nc(=O)[nH]c3nc[nH]c23)cccc1[N+](=O)[O-]	H37Rv					inhibition	6.25 µg/mL	0%
CC(=O)ON=C1C=C/C(=C(/C#N)c2ccccc2)C=C1C	H37Rv			resazurin		inhibition	6.25 µg/mL	53%
Cc1c(CN2CCN(C)CC2)cc(-c2ccc(Cl)cc2)n1C1CCCCC1	H37Rv					inhibition	12.5 µg/mL	96%
CCn1cc(C(=O)O)c(=O)c2cc(F)c(N3CCN(CC(=O)c4ccc(Br)cc4)CC3)nc21	H37Rv					MIC		>6.25 µg/mL
C=CCn1c(-c2cc3ccccc3oc2=O)cs/c1=N\N=C\c1ccc(O)c(OCC)c1	H37Rv					inhibition	12.5 µg/mL	96%
CCOC(=O)Nc1cc(N)c([N+](=O)[O-])c(NCCc2ccc(S(C)(=O)=O)cc2)c1	H37Rv					EC50		>12.5 µg/mL
NC[C@@H]1O[C@H](O[C@H]2[C@@H](O)[C@H](O[C@@H]3[C@@H](O)[C@H](N)C[C@H](N)[C@H]3O[C@H]3O[C@H](CO)[C@@H](O)C[C@H]3N)O[C@@H]2CO)[C@H](N)[C@@H](O)[C@@H]1O[C@H]1O[C@H](CO)[C@@H](O)[C@H](O)[C@@H]1O	Aoyama B (ethionamide-resistant)					EC50		25–50 µg/mL
O=C(N/N=C/c1ccc([N+](=O)[O-])o1)c1ccc(F)cc1	H37Rv					inhibition	6.25 µg/mL	72%
CCOc1cc(OCC)c(OCC)cc1/C=C1\N=C(c2ccccc2)OC1=O	H37Rv			BACTEC		MIC bound		>12.5 µg/mL
COc1cccc(CSc2ccncc2)c1	H37Rv					inhibition	6.25 µg/mL	6%
O=C(CN1CCN(c2cc3c(cc2F)c(=O)c(C(=O)O)cn3C2CC2)CC1)c1ccc(F)cc1	H37Rv		VERO			EC50		<6.25 µg/mL
NCC[C@H](O)C(=O)N[C@@H]1C[C@H](N)[C@@H](O[C@H]2O[C@H](CN)[C@@H](O)[C@H](O)[C@H]2O)[C@H](O)[C@H]1O[C@H]1O[C@H](CO)[C@@H](O)[C@H](N)[C@H]1O	TN718 (AY)					MIC		64 µg/mL
O=C(N/N=C/Cc1ccccc1)c1ccc(F)cc1	H37Rv					EC50		>6.25 µg/mL
O=C(CNC(=O)c1ccccc1)N/N=C/c1c(O)ccc2ccccc12	H37Rv			BACTEC		inhibition	12.5 µg/mL	-22%
COc1ccccc1CSc1ccccn1	H37Ra					MIC		>12.8 µg/mL
O=C(CCC(=O)c1ccc2ccccc2c1)NC[C@H]1CN(c2ccc(-n3cncn3)c(F)c2)C(=O)O1	ATCC 27294					MIC		2 µg/mL
c1ccc2c(c1)n1c(N3CCCC3)[n+]3ccccc3c1c1c3cccc[n+]3c(N3CCCC3)n21	H37Rv			BACTEC		MIC bound		>6.25 µg/mL
CCCCCCn1c(C)c(CN2CCN(C)CC2)c(CN2CCN(C)CC2)c1-c1ccc(Cl)cc1	H37Rv					inhibition	12.5 µg/mL	98%
Cc1ccccc1CSc1ccccn1	H37Rv					MIC90		>6.25 µg/mL
O=C(N/N=C/c1ccc([N+](=O)[O-])cc1[N+](=O)[O-])c1ccc(F)cc1	H37Rv					inhibition	6.25 µg/mL	39%
CCCCc1c2c(nn1C(C)=O)C(=O)C=C(Nc1ccccc1)C2=O	H37Rv			BACTEC		MIC bound		>6.25 µg/mL
CCOC(=O)Nc1cc(NC/C(=N/O)c2ccc(C(F)(F)F)cc2)c([N+](=O)[O-])c(N)n1	H37Rv					EC50		>12.5 µg/mL
CCOC(=O)CCC(NC(=O)c1ccc(Nc2nc3ccccc3nc2C(=O)OCC)s1)C(=O)OCC	H37Rv			resazurin		inhibition	6.25 µg/mL	23%
CO[C@H]1/C=C/O[C@@]2(C)Oc3c(C)c(O)c4c(O)c(cc(OCC(=O)N5CCCCCC5)c4c3C2=O)NC(=O)/C(C)=C\C=C\[C@H](C)[C@H](O)[C@@H](C)[C@@H](O)[C@@H](C)[C@H](OC(C)=O)[C@@H]1C	H37Rv					MIC		0.09 µg/mL
NNC(=O)c1cc2ccccc2cc1O	H37Rv			BACTEC		MIC		≥12.5 µg/mL
Cc1ccc2c(c1)Oc1nnc(Cl)cc1C(=O)N2Cc1ccccc1	H37Rv			BACTEC		inhibition	12.5 µg/mL	59%

For reference, 5 entries again:

{"structure": "O=C1NC2NC(=O)NC2N1", "strain or isolate": "H37Rv", "read by": "BACTEC", "read-out": "MIC bound", "result": ">12.5 µg/mL"}
{"structure": "COc1ccc(CN=C2NC(=O)/C(=C/c3c(Cl)cccc3Cl)N2)cc1", "strain or isolate": "H37Rv", "read-out": "MIC", "result": ">12.5 µg/mL"}
{"structure": "COc1cccc(Sc2ncccn2)c1", "strain or isolate": "H37Ra", "read-out": "MIC", "result": ">12.8 µg/mL"}
{"structure": "COc1ccc(C(=O)N2N=C(C)C(C)(C)C2(C)O)cc1", "strain or isolate": "H37Rv", "read by": "BACTEC", "read-out": "inhibition", "dose": "12.5 µg/mL", "result": "0%"}
{"structure": "COc1cc2oc3ccccc3c(=O)c2cc1CSc1ccccc1N", "strain or isolate": "H37Rv", "read by": "BACTEC", "read-out": "inhibition", "dose": "12.5 µg/mL", "result": "16%"}

Inhibition is in % at the dose shown (toxicity tests: loss of growth or viability). MIC bound: limit read from a one-dose screen. ECn: concentration that inhibits the pathogen or its effect by n%. Two numbers with a dash give a range or band. Blank or dashed fields: not listed here. Rows are shuffled and stem from different studies.